Data as given in PubChem BioAssay AID504761 (Drosophila RNAi Screening Center, 2011)
In all, the deposit lists about 22,000 reagents; below is a random part of those with a known target gene and a result. In the full data, 116 (0.52%) were called active. 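Calls depend on retest data that are not deposited; infection was ranked per plate without normalising between plates; the unit of the infection score is not given.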 The raw values are shown without normalisation. Entries without a mark were called inactive. Reagents against one gene are numbered here. Not given: the amount of reagent, the time to read-out.

- Assay: 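Fly genes whose silencing reduces dengue virus type 2 infection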 (primary screen)
- Cells: D.Mel-2 cells from Drosophila
- Reagent: long dsRNA against Drosophila genes
- Conditions: infection with dengue virus type 2; dose and infection time not stated
- Detection: 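Cells stained for dengue envelope protein and imaged; percent of infected cells per well on duplicate plates, ranked by infection, with stained nuclei counted for cell number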
- Scale: infection score: higher = more virus-infected cells; cell count: higher = more cells in the well
- Active means: 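Low infection ranks in the two replicates (chance level up to 0.065) followed by a retest with a 1.5-fold or larger significant decrease, p below 0.05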
- Calls: active = confirmed: knock-down lowers infection; inactive = not picked or not confirmed

Gene	reagent no.	infection score, replicate 1	infection score, replicate 2	cell count, replicate 1	cell count, replicate 2
rtet	1	3.88	4.2	6165	6357
ics	1	20.3	14.2	5695	6630
ics	2	9.88	14.7	3704	5146
wam	1	11	2.53	5403	7103
Pcf11	1	4.7	6.72	5133	4373
ND-SGDH	1	2.65	6.35	6464	6108
CG7611	1	1.13	0.96	5862	6473
Agpat3	1	2.77	5.05	6748	6908
CCKLR-17D3	1	2.53	1.45	5172	5033
CCKLR-17D3	2	7.17	7.14	5381	5305
CCKLR-17D3	3	0.64	0.6	6685	6152
chic	1	9.43	11.4	4686	5717
CG10863	1	5.1	9.1	1472	4580
CG13215	1	4.29	3.94	6593	6877
mtgo	1	2.99	47.4	6416	4898
mtgo	2	2.25	10.9	5609	4649
mtgo	3	7.95	11.3	6928	5852
mtgo	4	6.46	13.8	5604	6589
CG31823	1	17.3	0.57	5444	6709
CG11828	1	3.63	12.3	6335	6721
CG11828	2	5.31	2.69	6665	6313
CG11828	3	4.87	9.05	6585	6516
CG5321	1	13.6	5.83	6266	6448
CG5321	2	1.26	15.9	6174	5766
CG5321	3	3.77	23	6640	6349
Ets97D	1	2.18	3.52	6601	6855
Ets97D	2	9.35	28.6	6438	3384
CG17841	1	3.85	1.78	6604	6680
CG17841	2	18.3	8.98	5706	6161
Tsp66E	1	0.5	2.42	6636	6491
egg	1	3.26	8.73	6297	3872
egg	2	2.98	5.16	6746	6255
egg	3	16.1		5513	359

Ordered by “infection score, replicate 1” (low to high): 6 of the entries above
Gene	reagent no.	infection score, replicate 1	infection score, replicate 2	cell count, replicate 1	cell count, replicate 2
CG7611	1	1.13	0.96	5862	6473
CCKLR-17D3	1	2.53	1.45	5172	5033
ND-SGDH	1	2.65	6.35	6464	6108
Agpat3	1	2.77	5.05	6748	6908
Pcf11	1	4.7	6.72	5133	4373
CCKLR-17D3	2	7.17	7.14	5381	5305

Next records follow.
Gene	reagent no.	infection score, replicate 1	infection score, replicate 2	cell count, replicate 1	cell count, replicate 2
CG8209	1	3.49	3.79	5696	5621
CG8209	2		6	443	1267
CG12688 (retired record)	1	12.5	6.08	3608	1777
CG12688 (retired record)	2	14.1	8.72	4491	2385
INPP5E	1	2.42	10.1	6606	6538
Nup93-1	1	19.1	4.34	4422	5046
PolI	1	8.39	10	6674	1189
CG17999	1	7.34	18.7	6021	5688
CG32199	1	5.79	1.44	6394	6397
CG31898	1	2.91	1.48	6091	5999
Dr	1	10.2	3.08	6395	6361
Dr	2	1.49	7.96	6369	6407
Nbr	1	11.5	34	6598	4583
Grasp65	1	5.76	6.41	5794	5773
Grasp65	2	2.8	6.21	5223	1337
RIC-3	1	13.6	12.3	6557	6610
RIC-3	2	18.6	32.6	5605	5836
CG7080	1	6.69	1.97	6485	6554
CG7080	2		21.2	409	5254
CG12909	1	17.4	4.19	5732	6637
CG12909	2	8.02	28.8	6621	5413
CG18747	1	8.97	10.5	6320	5962
CG18747	2	7.91	1.74	5856	5869
Sk2	1	3.98	5.06	6005	6702
fd19B	1	1	0.79	6071	6793
fd19B	2	6.35	2.71	5721	6192
psidin	1	2.95	0.88	6604	6247
CG17739	1	4.56	7.34	6097	6379
CG17739	2	2.19	6.33	5977	5956
CG5043	1	2.69	7.71	6737	6717
CG5043	2	3.76	1.79	6308	5873
UQCR-C2	1	3.28	5	6166	5037
UQCR-C2	2	20.4	24.4	5088	5036
NO66	1	3.97	9.35	6706	6602
CG31826	1	2.64	0.81	6148	6509
CG14667	1	1.13 (active)	0.55	6711	6945
CG14667	2		6.25	376	2112
Kdm5	1	4.54	4.67	5307	5438
Kdm5	2	19.4	28.4	3232	3942
Dhdds	1	4.26	0.75	6360	6422
Dhdds	2	7.54	12.5	5558	6174
